Results of unrelated studies side by side (data: NIAID ChemDB).

Common to all: whole-cell or culture tests; organism: HIV-1; measure: EC50

ECn: concentration that inhibits the pathogen or its effect by n%. Conditions beyond the fields shown may differ between rows. An empty or dashed field is not shown.

SMILES,read by,setting,cells,strain or isolate,changes,result
C#C[C@@]1(CO)C=C[C@H](n2cc(C)c(=O)[nH]c2=O)O1,β-galactosidase,,MAGI (CCR5) + MAGI,NL4-3,RT-M184V,0.79 µM
Nc1ncnc2c1ncn2CCOCP(=O)(O)O,p24,,CBMC,HXB2-D (RT K65R M184V),RT-K65R M184V,5.01 ± 0.7 µM
CCO/N=C(\c1ccc(Br)cc1)C1CCN(C2(C)CCN(C(=O)c3c(C)cc[n+]([O-])c3C)CC2)CC1,p24,,PBMC,R5-08 R5 clinical isolate,,0.0087 µM
N#Cc1cccc(CN2CCC(N=C3C=C(Cc4cccc5ccccc45)NS(=O)(=O)N3)CC2)c1,MTT,,MT-4,IIIB,,>113 µM
Cc1cn([C@H]2C=C[C@@H](CO)O2)c(=O)[nH]c1=O,p24,,MT-2,RT-T69G K103N,1(T69G+K103N),0.543 µM
CC(C)(C)OC(=O)N[C@@H](Cc1ccccc1)[C@@H](O)C[C@@H](Cc1ccc(OCCN2CCOCC2)cc1)C(=O)N[C@H]1c2ccccc2C[C@H]1O,antigen,,PBL,IIIB,,<0.00078 µM
COC(=O)c1cc2c(c(OC)c1-c1ccc(N(C)C)cc1)OCO2,antigen,,C8166,74V,L74V,0.44 µM
Cc1cn([C@H]2C[C@H](N=[N+]=[N-])[C@@H](CO)O2)c(=O)[nH]c1=O,p24,,Macrophage,Clinical isolate,,0.005 µM
CCC(C)Oc1nc(Sc2cc(C)cc(C)c2)cc(=O)[nH]1,cytopathic effect / MTT,,MT-4,IIIB,,>115 µM
COc1ncnc2c1ncn2[C@@H]1O[C@H](CO[Si](C)(C)C(C)(C)C)C2(OS(=O)(=O)C=C2N)[C@H]1O[Si](C)(C)C(C)(C)C,syncytia,,C8166,IIIB,,0.7 µg/mL
Nc1ncnc2c1ncn2[C@@H]1O[C@H](OCP(=O)(O)O)C=C1F,p24 / ELISA / antigen,,Macrophages,,,2.5 µM
Cn1cnc2ncn([C@@H]3O[C@H](CO[Si](C)(C)C(C)(C)C)C4(OS(=O)(=O)C=C4N)[C@H]3O[Si](C)(C)C(C)(C)C)c2c1=O,syncytia,,C8166,IIIB,,0.1 µg/mL
CCOC(=O)[C@H](C)N[P@](=O)(CO[C@@H]1C=C(F)[C@H](n2cnc3c(N)ncnc32)O1)Oc1ccccc1,p24 / ELISA / antigen,4 d,PBMCs,BR-92-025 (subtype C),,0.068 µM
CC(C)(C)OC(=O)N[C@@H](Cc1ccccc1)[C@@H](O)C[C@@H](Cc1ccc(OCC[N+]2([O-])CCOCC2)cc1)C(=O)N[C@H]1c2ccccc2C[C@H]1O,p24,,H9,IIIB,,<0.1 µM
CS(=O)(=O)c1ccc(CN2CCC(N=C3C=C(Cc4cccc5ccccc45)NS(=O)(=O)N3)CC2)cc1,MTT,,MT-4,RES056,RT-K103N Y181C,>232 µM
CCC(C)Oc1cc(N)nc(Sc2cccc(OC)c2)n1,cytopathic effect / MTT,,MT-4,IIIB,,75 µM
CCc1cc(NCc2nc3c(Cl)ccc(Cl)c3o2)c(=O)[nH]c1C,syncytia,,CEM,IIIB,,0.007 ± 0.003 µg/mL
N#Cc1cccc(CN2CCC(N=C3C=C(Cc4ccc(Cl)cc4Cl)NS(=O)(=O)N3)CC2)c1,MTT,,MT-4,RES056,RT-K103N Y181C,>99.87 µM
CC(C)(C)[Si](C)(C)OC[C@H]1O[C@@H](n2cnc3[nH]c(=O)[nH]c(=O)c32)[C@H](O[Si](C)(C)C(C)(C)C)C12OS(=O)(=O)C=C2N,syncytia,,C8166,IIIB,,0.4 µg/mL
COc1ccc(CN[C@@H](C(=O)N[C@H](C(=O)NCc2nc3ccccc3[nH]2)C(C)C)[C@H](O)[C@H](Cc2ccccc2)NC(=O)[C@@H](NC(=O)CCc2ccc(O)cc2)C(C)(C)C)cc1,cytopathic effect,,MT-4,IIIB,,0.039 µM
CCCCOC(=O)[C@H](C)NP(=O)(CO[C@@H]1C=C(F)[C@H](n2cnc3c(N)ncnc32)O1)N[C@@H](C)C(=O)OCCCC,ATP,,MT-2,IIIB,,0.041 µM
Nc1ccn([C@H]2CC[C@@H](CO)O2)c(=O)n1,syncytia,,JM,IIIB,,0.05 µM
Cc1ccnc2c1NC(=O)c1cccnc1N2C1CC1,MTT,,MT-4,IIIB,,0.31 µM
CC(C)(C)[Si](C)(C)OC[C@H]1O[C@@H](n2cnc3nc[nH]c(=O)c32)[C@H](O[Si](C)(C)C(C)(C)C)C12OS(=O)(=O)C=C2N,syncytia,,CEM,IIIB,,0.07 µg/mL
CCC(C)Oc1cc(N)nc(Sc2ccc(F)cc2)n1,cytopathic effect / MTT,,MT-4,IIIB,,>67.5 µM
COc1ccc(CN[C@@H](C(=O)N[C@H](C(=O)NCc2nc3ccccc3[nH]2)C(C)C)[C@H](O)[C@H](Cc2ccccc2)NC(=O)[C@@H](NC(=O)OCc2ccccc2)C(C)(C)C)cc1,MTT / p24,,U-937,IIIB,,0.0107 µM
Cc1cn([C@H]2C[C@H](N=[N+]=[N-])[C@@H](CO)O2)c(=O)[nH]c1=O,p24 / ELISA / antigen,,PBMCs,,,0.015 µM
CC(C)(C)NC(=O)[C@@H]1C[C@@H]2CCCC[C@@H]2CN1C[C@@H](O)[C@H](Cc1ccccc1)NC(=O)[C@H](CC(N)=O)NC(=O)c1ccc2ccccc2n1,p24,,MT-4,NL4-3,PR-D30N A71V,<0.01 µM
CCC(C)Oc1cc(N)nc(Sc2cccc(Cl)c2)n1,cytopathic effect / MTT,,MT-4,IIIB,,29 µM
CC(C)(C)OC(=O)N[C@@H](Cc1ccc(OCCN2CCOCC2)cc1)[C@@H](O)C[C@@H](Cc1ccc(OCCN2CCOCC2)cc1)C(=O)N[C@H]1c2ccccc2C[C@H]1O,antigen,,H9,IIIB,,<0.1 µM
CCC(C)Oc1cc(N)nc(S(=O)(=O)c2ccccc2)n1,cytopathic effect / MTT,,MT-4,IIIB,,>90 µM
CC(C)(C)[Si](C)(C)OC[C@H]1O[C@@H](n2cnc3c(N)ncnc32)[C@H](O[Si](C)(C)C(C)(C)C)C12OS(=O)(=O)C=C2N,syncytia,,C8166,IIIB,,0.4 µg/mL
O=c1[nH]cnc2c1ncn2[C@H]1CC[C@@H](CO)O1,β-galactosidase,,MAGI (CCR5) + MAGI,A012B WT,,1.1 µM
O=c1[nH]cnc2c1ncn2[C@H]1CC[C@@H](CO)O1,p24,,MT-2,RT Δ.67 T69G K103N,1 (Δ.67+T69G+K103N),0.467 µM
CCCc1cc(=O)oc2c3c(c4c(c12)OC(C)(C)C=C4)O[C@H](C)[C@@H](C)[C@@H]3O,cytopathic effect / XTT,,CEM + CEM-SS,IIIB,,0.2 µM
Nc1ccn([C@H]2CC[C@@H](CO)O2)c(=O)n1,cytopathic effect,,CEM + CEM-SS,SK1,,0.0254 µM
CC(C)(C)OC(=O)N[C@@H](Cc1ccccc1)[C@@H](O)C[C@@H](Cc1ccc(OCCN2CCS(=O)CC2)cc1)C(=O)N[C@H]1c2ccccc2C[C@H]1O,antigen,,H9,IIIB,,<0.2 µM
N#Cc1ccccc1CN1CCC(N=C2C=C(Cc3cccc4ccccc34)NS(=O)(=O)N2)CC1,MTT,,MT-4,RES056,RT-K103N Y181C,>108 µM